Data: article PMC8609006, “Design of modular autoproteolytic gene switches responsive to anti-coronavirus drug candidates” (Nature Communications, 2021)

Target: T1, SARS-CoV PLpro (PLpro(S1)) (Severe acute respiratory syndrome-related coronavirus, UniProt P0C6X7)
T1 construct: gene rep
Assay type: cell-based

## Cc1ccc(N)cc1C(=O)N[C@H](C)c1cccc2ccccc12 [GRL-0617]
  fold activation of nanoLuc over non-induced (maximum): 120 fold
